Tests used:
PR8 (H1N1) = format: cell-based, Influenza A virus A/Puerto Rico/8/34 (PR8); conditions: ratio CC50 / IC50
H9N2 = format: cell-based, Influenza A virus A/Chicken/Guangdong/96 (H9N2); conditions: ratio CC50 / IC50

SMILES: C[C@H](CCC(=O)O)[C@H]1CC[C@H]2[C@@H]3[C@H](O)C[C@@H]4C[C@H](O)CC[C@]4(C)[C@H]3CC[C@]12C [CDCA, Chenodeoxycholic acid]
- SI (PR8 (H1N1)) (PR8 (H1N1)): 16.8
- SI (H9N2) (H9N2): 32.4

SMILES: C[C@H](CCC(=O)O)[C@H]1CC[C@H]2[C@@H]3[C@@H](O)C[C@@H]4C[C@H](O)CC[C@]4(C)[C@H]3CC[C@]12C [UDCA, ursodeoxycholic acid]
- SI (PR8 (H1N1)) (PR8 (H1N1)): 10.6
- SI (H9N2) (H9N2): 13.9

SMILES: C[C@H](CCC(=O)O)[C@H]1CC[C@H]2[C@@H]3C[C@H](O)[C@@H]4C[C@H](O)CC[C@]4(C)[C@H]3CC[C@]12C [HDCA, hyodeoxycholic acid]
- SI (PR8 (H1N1)) (PR8 (H1N1)): 9.5
- SI (H9N2) (H9N2): 9.2
